Compound potency records, mixed from different reports. Data source: NIAID ChemDB in PubChem.

All rows: whole-cell or culture tests; agent: Parainfluenza virus

Blank or dashed fields: not listed here. ECn is the concentration giving n% inhibition of infection, replication or growth. Rows are shuffled and stem from different studies.

SMILES	cells	read-out	strain or isolate	method	result
O=C1CSc2nnc(-c3cn(-c4ccccc4)nc3-c3ccccc3)n2N1	VERO	EC50	TYPE 3	cytopathic effect	>16 µg/mL
Nc1ncnc2c1ncn2[C@H]1C[C@@H](CO)[C@H](O)[C@@H]1O	VERO	EC50	TYPE 1	cytopathic effect	≥200 µg/mL
NC(=O)CSc1ncnc2c1cnn2COCC(O)CO	VERO	EC50	TYPE 3	cytopathic effect	>400 µg/mL
CCOC(=O)C1Sc2nnc(-c3cn(-c4ccccc4)nc3-c3ccccc3)n2NC1=O	VERO	EC50	TYPE 3	cytopathic effect	>16 µg/mL
NSc1ncnc2c1ncn2[C@H]1C[C@H](O)[C@@H](CO)O1		EC50	TYPE 3	cytopathic effect	>320 µM
Nc1ncnc2c1ncn2[C@@H]1O[C@H](/C=N/O)[C@@H](O)[C@@H]1O	VERO	EC50	TYPE 3	cytopathic effect	>40 µg/mL
OC[C@H]1O[C@@H](c2cc(/C=C/Br)c(F)cc2F)C[C@@H]1O	VERO	EC50	TYPE 3	cytopathic effect	>16 µg/mL
Nc1ccn(CCCC(O)CF)c(=O)n1	VERO	EC50	TYPE 3	cytopathic effect	>400 µg/mL
N#Cc1cc(NC(=O)c2ccccc2)c(=O)n2c1[nH]c1ccccc12	VERO	EC50	GREER (TYPE 2)	plaque count	0.22 µg/mL
CC1=Nn2c(nnc2-c2cn(-c3ccccc3)nc2-c2ccccc2)SC1	VERO	EC50	TYPE 3	cytopathic effect	>16 µg/mL
Nc1ncnc2c1ncn2[C@@H]1C=C[C@@H](O)[C@H]1O		MIC	TYPE 3		2 µg/mL
CC1(CO)CCC(Cc2nc3ncnc(N)c3[nH]2)C1(C)C	VERO	EC50	TYPE 3	cytopathic effect	>10 µg/mL
N#Cc1cc(C#N)c2[nH]c3ccccc3n2c1=O	VERO	EC50	TYPE 3	plaque count	5.2 µg/mL
Nc1nccc2c1ncn2[C@@H]1C=C(CCO)[C@@H](O)[C@H]1O	VERO	EC50	TYPE 3	plaque count	>25 µg/mL
NS(=O)(=O)c1ncnc2c1ncn2[C@@H]1O[C@H](CO)[C@@H](O)[C@@H]1O		EC50	TYPE 3	cytopathic effect	>320 µM
COS(=O)(=O)O.N=C(N)c1ccc2cc(OC(=O)c3ccc(N=C(N)N)cc3)ccc2c1	VERO	EC50	HA-1/C243	cytopathic effect	>110 µg/mL
Cc1nn2c(-c3cn(-c4ccccc4)nc3-c3ccccc3)nnc2s1	VERO	EC50	TYPE 3	cytopathic effect	>3.2 µg/mL
Cc1cccn2c(C3OCCO3)cnc12	VERO	EC50	TYPE 3		>1000 µM
O=c1[nH]n2c(-c3cn(-c4ccccc4)nc3-c3ccccc3)nnc2sc1=O	VERO	EC50	TYPE 3	cytopathic effect	>80 µg/mL
NC(=O)CCN(CCC(N)=O)S(=O)(=O)c1cccc(Nc2nc(Nc3cccc(S(=O)(=O)N(CCC(N)=O)CCC(N)=O)c3)nc(Nc3ccc(-c4ccc(Nc5nc(Nc6cccc(S(=O)(=O)N(CCC(N)=O)CCC(N)=O)c6)nc(Nc6cccc(S(=O)(=O)N(CCC(N)=O)CCC(N)=O)c6)n5)cc4S(=O)(=O)O)c(S(=O)(=O)O)c3)n2)c1	HEP-2	EC50	TYPE 3	cytopathic effect	>375 µg/mL
Nc1nc(Cl)c2ncn([C@H]3CO[C@@H](CO)C3)c2n1	VERO	EC50	TYPE 5	cytopathic effect	100 µg/mL
OC[C@H]1O[C@@H](c2cncc(Br)c2)[C@@H](O)[C@@H]1O	VERO	EC50	TYPE 3	cytopathic effect	≥100 µg/mL
CC1(CO)CCC(Cn2nnc3c(Cl)ncnc32)C1(C)C	VERO	EC50	TYPE 3	cytopathic effect	>40 µg/mL
Cc1ccn2c(C3OCCO3)cnc2c1	VERO	EC50	TYPE 3		>1000 µM
OC[C@H]1O[C@H](c2cncc(Br)c2)[C@@H](O)[C@@H]1O	VERO	EC50	TYPE 3	cytopathic effect	≥100 µg/mL
Nc1ncnc2c1ncn2[C@@H]1O[C@H](C=O)C[C@H]1O	VERO	EC50	TYPE 3	cytopathic effect	>400 µg/mL
CC1(C)[C@@H](CCO)C[C@H]1n1cnc2c(=O)[nH]cnc21	VERO	EC50	TYPE 3	cytopathic effect	>400 µg/mL
Cc1cccn2c(C3OCCS3)cnc12	VERO	EC50	TYPE 3		>1000 µM
Nc1nc2c(ncn2[C@H]2CO[C@@H](CO)C2)c(=O)[nH]1	VERO	EC50	TYPE 4	cytopathic effect	200 µg/mL
Nc1nc(F)nc2c1ncn2[C@@H]1C=C(CO)[C@@H](O)[C@H]1O	VERO	EC50	TYPE 3	cytopathic effect	2 µg/mL
Cc1ccn2c(C3OCCS3)cnc2c1	VERO	EC50	TYPE 3		>1000 µM
C=C(N=CC)c1nc(-c2ccc(C)cc2)n([C@@H]2O[C@H](CO)[C@@H](O)[C@H]2O)n1	VERO	EC50	TYPE 3	cytopathic effect	>40 µg/mL
CC1(C)[C@@H](CO)CC[C@@]1(C)Cn1cc(I)c(=O)[nH]c1=O	VERO	EC50	TYPE 3	cytopathic effect	>400 µg/mL
Nc1nc2c(ncn2[C@H]2C[C@H](O)[C@@H](COP(=O)(O)C(=O)O)O2)c(=O)[nH]1	VERO	EC50	TYPE 3	cytopathic effect	2800 µM
CC1(C)[C@@H](CO)CC[C@@]1(C)Cn1nnc2c(Cl)ncnc21	VERO	EC50	TYPE 3	cytopathic effect	>400 µg/mL
Cc1cc(=O)c2c(O)c(C)c(O[C@H]3O[C@H](CO)[C@@H](O)[C@H](O)[C@H]3O)c(C)c2o1	HEP-2	EC50	TYPE 3	cytopathic effect	13.8 µg/mL
Cc1cn(C(CF)CCCO)c(=O)[nH]c1=O	VERO	EC50	TYPE 3	cytopathic effect	>400 µg/mL
CC1=C[C@@H](n2cnc3c(N)ncnc32)[C@H](O)[C@@H]1O	VERO	EC50	TYPE 3	cytopathic effect	20 µg/mL
CCOC(=O)c1cc(C#N)c2[nH]c3ccccc3n2c1=O	VERO	EC50	GREER (TYPE 2)	plaque count	150 µg/mL
Nc1ncnc2c1ncn2[C@@H]1C=C(CF)[C@H](O)[C@H]1O	VERO	EC50	TYPE 3	cytopathic effect	7 µg/mL
COC(=O)[C@]1(C)CCC[C@]2(C)c3cc(Br)c4nc[nH]c4c3CCC12	VERO	EC50	TYPE 3	plaque count	>4 µg/mL
Cc1cn([C@H]2C[C@H]([N+](=O)[O-])[C@@H](CO)O2)c(=O)[nH]c1=O	VERO	EC50		cytopathic effect	>200 µg/mL
C=CC1=C[C@@H](n2cnc3c(N)ncnc32)[C@H](O)[C@@H]1O	VERO	EC50	TYPE 3	cytopathic effect	40 µg/mL
CC1(C)[C@@H](CCO)C[C@H]1n1nnc2c(N)ncnc21	VERO	EC50	TYPE 3	cytopathic effect	>100 µg/mL
Nc1nccc2c1ncn2[C@@H]1C[C@H](CO)[C@@H](O)[C@H]1O	VERO	EC50	TYPE 3	cytopathic effect	1 µg/mL
Nc1ccn([C@@H]2C=C(CCO)[C@@H](O)[C@H]2O)c(=O)n1	VERO	EC50	TYPE 3	plaque count	>25 µg/mL
Nc1nccc2c1ncn2[C@@H]1C[C@H](CO)[C@@H](O)[C@H]1O		MIC	TYPE 3		0.2 µg/mL
CC(Sc1ncnc2c1cnn2COCCO)C(N)=O	VERO	EC50	TYPE 3	cytopathic effect	>400 µg/mL
Nc1nc2c(ccn2[C@@H]2C[C@H](CO)[C@@H](O)[C@H]2O)c(=O)[nH]1		MIC			>100 µg/mL
Cc1nc(Cc2n[nH]c(=S)n2-c2ccccc2)nn1C		MIC	TYPE 3		>80 µg/mL
NC1=Nn2c(nnc2-c2cn(-c3ccccc3)nc2-c2ccccc2)SC1	VERO	EC50	TYPE 3	cytopathic effect	>16 µg/mL
N#Cc1cncc([C@@H]2O[C@H](CO)[C@@H](O)[C@@H]2O)c1	VERO	EC50	TYPE 3	cytopathic effect	≥100 µg/mL
CCn1nc(Cc2n[nH]c(=S)o2)nc1C		MIC	TYPE 3		>400 µg/mL
CON=C[C@H]1O[C@@H](n2cnc3c(N)ncnc32)[C@H](O)[C@@H]1O	VERO	EC50	TYPE 3	cytopathic effect	>100 µg/mL
NSc1ncnc2c1ncn2[C@@H]1O[C@H](CO)[C@@H](O)[C@@H]1O		EC50	TYPE 3	cytopathic effect	>320 µM
CCON=C[C@H]1O[C@@H](n2cnc3c(N)ncnc32)[C@H](O)[C@@H]1O	VERO	EC50	TYPE 3	cytopathic effect	>100 µg/mL
CCC(Sc1ncnc2c1cnn2COCCO)C(N)=O	VERO	EC50	TYPE 3	cytopathic effect	>400 µg/mL
OC[C@H]1O[C@H](c2cncc(Br)c2)[C@@H](O)[C@H]1O	VERO	EC50	TYPE 3	cytopathic effect	≥100 µg/mL
Nc1nccc2c1ncn2[C@@H]1CC[C@@H](O)[C@H]1O		MIC	TYPE 3		0.2 µg/mL
CC1(C)[C@@H](CCO)C[C@H]1n1cnc2c(N)nc(N)nc21	VERO	EC50	TYPE 3	cytopathic effect	>400 µg/mL
CCc1nc(CC(=O)NN=C(C)C)nn1CC		MIC	TYPE 3		>80 µg/mL
N#Cc1cncc([C@H]2O[C@H](CO)[C@@H](O)[C@@H]2O)c1	VERO	EC50	TYPE 3	cytopathic effect	≥100 µg/mL
CC=NC(=N)c1nc(-c2ccc(OC)cc2)n(C/C=C/c2ccccc2)n1	VERO	EC50	TYPE 3	cytopathic effect	>100 µg/mL
NC(=O)c1cncc([C@@H]2O[C@H](CO)[C@@H](O)[C@@H]2O)c1	VERO	EC50	TYPE 3	cytopathic effect	≥100 µg/mL
COc1ccc(-n2c(Cc3nc4n(n3)CCCC4)n[nH]c2=S)cc1		MIC	TYPE 3		>400 µg/mL
COC(=O)[C@]1(C)CCC[C@]2(C)c3ccc4nc5c(nc4c3CCC12)CCCC5	VERO	EC50	TYPE 3	plaque count	>4 µg/mL
Cc1cc(NCCCCCCCCNc2cc(C)nc3cc(N(C)C)ccc23)c2ccc(N(C)C)cc2n1	VERO	EC50	HA-1/C243	cytopathic effect	>500 µg/mL
C=C(N=CC)c1nc(-c2cccc(OC)c2)n(C2O[C@H](CO)[C@@H](O)[C@H](O)[C@H]2O)n1	VERO	EC50	TYPE 3	cytopathic effect	>200 µg/mL
COC(=O)[C@]1(C)CCC[C@]2(C)c3ccc4[nH]c(C)nc4c3CCC12	VERO	EC50	TYPE 3	plaque count	>4 µg/mL
Nc1nccc2c1ncn2[C@@H]1C[C@H](CO)[C@@H](O)[C@H]1O	VERO	EC50	TYPE 3	cytopathic effect	0.2 µg/mL
C=C(N=CC)c1nc(-c2ccc(OC)cc2)n([C@@H]2O[C@H](CO)[C@@H](O)[C@H]2O)n1	VERO	EC50	TYPE 3	cytopathic effect	>100 µg/mL
CC1(C)[C@@H](CO)CC[C@@]1(C)Cn1nnc2c(N)ncnc21	VERO	EC50	TYPE 3	cytopathic effect	>400 µg/mL
CC1(CO)CCC(Cn2nnc3c(N)ncnc32)C1(C)C	VERO	EC50	TYPE 3	cytopathic effect	>40 µg/mL
N#Cc1cncc([C@@H]2O[C@H](CO)[C@H](O)[C@@H]2O)c1	VERO	EC50	TYPE 3	cytopathic effect	≥100 µg/mL
NC1=CC(c2ccccc2)=Nn2c(nnc2-c2cn(-c3ccccc3)nc2-c2ccccc2)S1	VERO	EC50	TYPE 3	cytopathic effect	>16 µg/mL
CCOC(=O)c1ccc(OC(=O)CCCCCN=C(N)N)cc1.COS(=O)(=O)O	VERO	EC50	HA-1/C243	cytopathic effect	>150 µg/mL

8 of the rows above, restated:

| SMILES | cells | read-out | strain or isolate | method | result |
|---|---|---|---|---|---|
| Nc1nccc2c1ncn2[C@@H]1C[C@H](CO)[C@@H](O)[C@H]1O | VERO | EC50 | TYPE 3 | cytopathic effect | 0.2 µg/mL |
| Nc1nc2c(ncn2[C@H]2C[C@H](O)[C@@H](COP(=O)(O)C(=O)O)O2)c(=O)[nH]1 | VERO | EC50 | TYPE 3 | cytopathic effect | 2800 µM |
| NS(=O)(=O)c1ncnc2c1ncn2[C@@H]1O[C@H](CO)[C@@H](O)[C@@H]1O |  | EC50 | TYPE 3 | cytopathic effect | >320 µM |
| CC=NC(=N)c1nc(-c2ccc(OC)cc2)n(C/C=C/c2ccccc2)n1 | VERO | EC50 | TYPE 3 | cytopathic effect | >100 µg/mL |
| NC1=Nn2c(nnc2-c2cn(-c3ccccc3)nc2-c2ccccc2)SC1 | VERO | EC50 | TYPE 3 | cytopathic effect | >16 µg/mL |
| Nc1ccn(CCCC(O)CF)c(=O)n1 | VERO | EC50 | TYPE 3 | cytopathic effect | >400 µg/mL |
| Nc1nccc2c1ncn2[C@@H]1C=C(CCO)[C@@H](O)[C@H]1O | VERO | EC50 | TYPE 3 | plaque count | >25 µg/mL |
| CCOC(=O)c1cc(C#N)c2[nH]c3ccccc3n2c1=O | VERO | EC50 | GREER (TYPE 2) | plaque count | 150 µg/mL |